Measured values from several laboratories, pooled; numbers as filed in NIAID ChemDB.

Shared fields: toxicity to cultured cells; cell line: 1A2; read-out: CC50

Rows are shuffled and stem from different studies.

C/C(=C\C=C\[C@@H](C)C1CC[C@@]2(C)[C@@H]3CC[C@H]4C(C)(C)C(=O)CC[C@]4(C)[C@@]3(O)CC[C@]12C)C(=O)O ; method: XTT / absorbance ; value: 42.73 µM
CC(C)(O)[C@H]1Cc2c(O)cc(-c3ccccc3)cc2O1 ; method: XTT / absorbance ; value: 152 µM
C=C(CC[C@@H](C)[C@H]1CC[C@@]2(C)[C@@H]3CC[C@H]4[C@](C)(C(=O)O)[C@@H](O)CC(=O)[C@@]45C[C@@]35CC[C@]12C)C(C)C ; method: XTT ; value: 18.5 µg/mL
C=C1[C@H]2CCC3C(CCC4[C@@]3(C)CCC[C@@]4(C)C(=O)O)(C2)[C@@H]1O ; method: XTT ; value: 104.8 µg/mL
O=C1c2c(O)cc(O)cc2O[C@H](c2ccc(O)cc2)[C@H]1c1c(O)cc(O)c2c(=O)cc(-c3ccc(O)c(O)c3)oc12 ; method: XTT / absorbance ; value: 96.27 µM
COc1ccc(-c2oc3cc(O)cc(O)c3c(=O)c2OC)cc1 ; method: XTT ; value: 5.2 µg/mL
COC(=O)/C(C)=C/C=C/[C@@H](C)C1CC[C@@]2(C)[C@@H]3CC[C@H]4C(C)(C)C(=O)CC[C@]4(C)C3=CC[C@]12C ; method: XTT / absorbance ; value: <7.79 µM
COc1cc(O)cc(O)c1C(=O)c1cc(O)cc(O)c1 ; method: XTT / absorbance ; value: >452 µM
Nc1ccn([C@H]2CC[C@@H](CO)O2)c(=O)n1 ; method: XTT ; value: >10 µM
C[C@@]12CCC[C@@](C)(C(=O)O)C1CC[C@@]13C[C@H](CCC12)[C@](C)(O)C3 ; method: XTT ; value: >125 µg/mL
COc1c2c(c3c(c1C(=O)c1ccccc1)OC(C)(C)C=C3)OC(C)(C)C=C2 ; method: XTT / absorbance ; value: 29.59 µM
CC1OC(OC2C(Oc3cc(O)c4c(=O)c(O)c(-c5ccc(O)c(O)c5)oc4c3)OC(CO)C(O)C2O)C(O)C(O)C1O ; method: XTT ; value: >210 µM
COc1cc(O)cc2oc3cc(O)c(O)cc3c(=O)c12 ; method: XTT / absorbance ; value: >456 µM
C=C[C@@](C)(O)CC/C(C)=C/C(=O)O[C@H]1[C@@H]2C=CO[C@@H](OC3OC(CO)C(O)C(O)C3O)[C@@H]2[C@@]2(CO)O[C@@H]12 ; method: XTT ; value: >237 µM
COc1cc(O)c2c(=O)cc(-c3c(OC)c(OC)c(OC)c(OC)c3OC)oc2c1 ; method: XTT ; value: >125 µg/mL
O=c1c2cc(O)ccc2oc2cc(O)cc(O)c12 ; method: XTT / absorbance ; value: 323 µM
COc1c(O)ccc2c(=O)c3c(O)cccc3oc12 ; method: XTT / absorbance ; value: 106 µM
CC1OC(OC2C(Oc3cc(O)c4c(=O)c(O)c(-c5ccc(O)cc5)oc4c3)OC(CO)C(O)C2O)C(O)C(O)C1O ; method: XTT ; value: >216 µM
COC(=O)/C(C)=C/C=C/[C@@H](C)[C@H]1CC[C@@]2(C)C3CC[C@H]4C(C)(C)C(=O)CC[C@]4(C)[C@@]3(O)CC[C@]12C ; method: XTT / absorbance ; value: 159 µM
O=C1c2c(O)cc(O)cc2O[C@@H](c2ccc(O)cc2)[C@@H]1c1c(O)cc(O)c2c(=O)cc(-c3ccc(O)c(O)c3)oc12 ; method: XTT / absorbance ; value: 179 µM
O=C(O)/C=C/c1ccc(O)cc1 ; method: XTT ; value: >762 µM
C=C(CC[C@@H](C)[C@H]1CC[C@@]2(C)[C@@H]3CC[C@H]4[C@](C)(C(=O)O)[C@@H](O)CC[C@@]45C[C@@]35CC[C@]12C)C(C)C ; method: XTT ; value: 120.1 µg/mL
O=c1c2cccc(O)c2oc2cc(O)cc(O)c12 ; method: XTT / absorbance ; value: 223.5 µM
NC(=O)NC1NC(=O)NC1=O ; method: XTT ; value: >125 µg/mL
COc1c(O)cc(O)c2c(=O)c3cc(O)ccc3oc12 ; method: XTT / absorbance ; value: 73.22 µM
COc1c(OC)c(OC)c(-c2cc(=O)c3c(O)cc(O)cc3o2)c(OC)c1OC ; method: XTT ; value: >125 µg/mL
O=c1c2cc(O)c(O)cc2oc2cc(O)cc(O)c12 ; method: XTT / absorbance ; value: 59.72 µM
CCCc1cc(=O)oc2c3c(c4c(c12)OC(C)(C)C=C4)OC(C)C(C)C3O ; method: XTT ; value: 35 µM
COc1cc(O)cc(O)c1C(=O)c1ccc(O)c(O)c1 ; method: XTT / absorbance ; value: >452 µM
C[C@@]12CCC[C@@](C)(C(=O)O)C1CCC13C=C(CC[C@H]4C(=O)[C@@]56CCC7[C@@](C)(CCC[C@@]7(C)C(=O)O)C5CC[C@H]4C6)[C@H](CCC12)C3 ; method: XTT ; value: >125 µg/mL
Cc1cn([C@H]2C[C@H](N=[N+]=[N-])[C@@H](CO)O2)c(=O)[nH]c1=O ; method: XTT ; value: >10 µM
O=c1c2cc(O)ccc2oc2cc(O)cc(O)c12 ; method: XTT / absorbance ; value: 120 µM

Repeating the final 2 entries:

SMILES | method | value
Cc1cn([C@H]2C[C@H](N=[N+]=[N-])[C@@H](CO)O2)c(=O)[nH]c1=O | XTT | >10 µM
O=c1c2cc(O)ccc2oc2cc(O)cc(O)c12 | XTT / absorbance | 120 µM

CCn is the concentration with n% toxicity to the cells.